Compound potency records, mixed from different reports. Data source: NIAID ChemDB in PubChem.

Common to all: whole-cell or culture tests; organism: HIV-1

ECn: concentration that inhibits the pathogen or its effect by n%. Neighbouring rows are from separate reports. An empty or dashed field is not shown.

SMILES | changes | cell line | read by | strain | endpoint | value
C/C=C/CSc1cc(NC(=S)c2ccsc2C)ccc1Cl | - | CEM + CEM-SS | cytopathic effect / XTT | RF | EC50 | 0.1 µM
O=c1[nH]cnc2c1ncn2[C@H]1CC[C@@H](CO)O1 | RT-D67N K70R T215F K219Q | CEM | p24 | RTMC (RT D67N K70R T215F K219Q) | EC50 | 2.9 µg/mL
CS(=O)(=O)N1CCC(CC2C(=O)N(c3ccccc3)c3ccccc32)CC1 | - | MT-2 | plaque count | RF | EC50 | >11 µM
O=c1[nH]cnc2c1ncn2[C@H]1CC[C@@H](CO)O1 | RT-A62V V75I F77L F116Y Q151M | MT-2 | p24 | RT A62V/V75I/F77L/F116Y/Q151M | EC50 | 20 µM
CC(C)(C)NC(=O)[C@@H]1CN(Cc2cccnc2)CCN1C[C@@H](O)C[C@@H](Cc1ccccc1)C(=O)N[C@H]1c2ccccc2C[C@H]1O | PR-L63P | PBMC | p24 | ERS104PRE(PR-L63P) Clinical isolate | EC50 | 0.013 µM
Cc1cn([C@@H]2O[C@H](CO[Si](C)(C)C(C)(C)C)C3(OS(=O)(=O)C=C3N)[C@H]2O[Si](C)(C)C(C)(C)C)c(=O)n(C)c1=O | RT-G190E | CEM | p24 | IIIB | EC50 | >50 µg/mL
CCc1c(C(=O)c2cc(C)cc(C)c2)n(CC2CC=CC2)c(=O)[nH]c1=O | RT-T139I | CEM + CEM-SS | cytopathic effect / XTT | NL4-3 | EC50 | 0.002 µM
Cc1cn([C@H]2C[C@H](N=[N+]=[N-])[C@@H](CO)O2)c(=O)[nH]c1=O | - | CEM + CEM-SS | cytopathic effect / XTT | LAV | EC50 | 0.004 µM
Nc1ccc(CC2(Cc3ccncc3)C(=O)N(c3ccccc3)c3ccccc32)cc1 | - | MT-2 | cytopathic effect / XTT | IIIB | EC50 | 21.5 µM
Nc1ncnc2c1ncn2CCOCP(=O)(O)O | RT-F77L F116Y Q151M | MT-2 | p24 | RT F77L/F116Y/Q151M | EC50 | 1.9 µM
O=C(N[C@H]1c2ccccc2OC[C@H]1O)[C@H](Cc1cccnc1)C[C@H](O)CN1CCN(Cc2ccn(-c3ccccc3Cl)c2)C[C@H]1C(=O)NCC(F)(F)F | PR-L10I N37S R41K M46I I54V I62V L63P A71V V77I V82A L90M I93L | MT-4 | p24 | Q-60C Clinical isolate | EC50 | <0.031 µM
Fc1cccc(F)c1C1SCc2nc3ccccc3n21 | RT-Y181C | CEM + CEM-SS | cytopathic effect / XTT | UC781-R (RT-Y181C) | EC50 | >69 µM
COc1c(CC=C(C)C)c(O)cc2c1C[C@H](c1ccc(O)c(CC=C(C)C)c1O)CO2 | - | MT-4 | MTT | IIIB | EC50 | >20 µg/mL
Nc1nc(NC2CC2)c2ncn([C@H]3C=C[C@@H](CO)C3)c2n1 | - | MT-2 | cytopathic effect / MTT | IIIB | EC50 | 2.4 µM
CC(C)(C)NC(=O)[C@@H]1C[C@@H]2CCCC[C@@H]2CN1C[C@@H](O)[C@H](Cc1ccccc1)NC(=O)[C@H](CC(N)=O)NC(=O)c1ccc2ccccc2n1 | PR-L10I I15V E35D N37E K45R I54V L63P A71V V82T L90M I93L C95F | PBMC | p24 | Clinical isolate | EC50 | 0.036 µM
CC(C)(C)NC(=O)[C@@H]1CN(Cc2cccnc2)CCN1C[C@@H](O)C[C@@H](Cc1ccccc1)C(=O)N[C@H]1c2ccccc2C[C@H]1O | - | HEK 293 + 293 Cells | luciferase / recombinant virus assay | NL4-3 WT | EC50 | 0.008 µM
O=C(N[C@H]1c2ccccc2OC[C@H]1O)[C@H](Cc1cccnc1)C[C@H](O)CN1CCN(Cc2ccn(-c3ccc(Cl)c(Cl)c3)c2)C[C@H]1C(=O)NCC(F)(F)F | - | MT-4 | p24 | NL4-3 WT | EC50 | <0.015 µM
CC(C)=CCc1c(O)cc2c(c1O)C(=O)C[C@@H](c1ccc(O)cc1)O2 | - | MT-4 | MTT | IIIB | EC50 | 19 µg/mL
Cc1cn([C@H]2C[C@H](C#N)[C@@H](CO)O2)c(=O)[nH]c1=O | - | ATH8 | cytopathic effect | IIIB | EC90 | >2.5 µg/mL
CCCCCCCCCCCCCCCCCCCCCCC(=O)O[C@@H]1[C@@H](C)[C@@]2(O)[C@@H](C=C(COC(C)=O)C[C@]3(O)C(=O)C(C)=C[C@@H]23)[C@@H]2C(C)(C)[C@]12O | Vif-deficient | C8166 | p24 / ELISA | NL4-3 | EC50 | 7.987 µM
N#CC[C@H](C1CCCC1)n1cc(-c2ncnc3[nH]ccc23)cn1 | - | PBMC | p24 / ELISA | - | EC90 | 4.7 µM
COc1ccc(C2CC(=O)c3c(cc(O)c(CC=C(C)C)c3O)O2)c(CC=C(C)C)c1O | - | MT-4 | MTT | IIIB | EC50 | >100 µg/mL
O=C1N(c2ccccc2)c2ccccc2C1(Cc1ccccc1)Cc1ccncc1 | - | MT-2 | cytopathic effect / XTT | IIIB | EC50 | 28.1 µM
CC(C)(C)NC(=O)[C@@H]1C[C@@H]2CCCC[C@@H]2CN1C[C@@H](O)[C@H](Cc1ccccc1)NC(=O)[C@H](CC(N)=O)NC(=O)c1ccc2ccccc2n1 | PR-L10R | MT-4 | p24 | NL4-3 | EC95 | 0.05 µM
COc1c(CC=C(C)C)c(O)cc2oc(=O)c(-c3ccc(O)cc3O)cc12 | - | MT-4 | MTT | IIIB | EC50 | >20 µg/mL
CC(C)(C)NC(=O)[C@@H]1C[C@@H]2CCCC[C@@H]2CN1C[C@@H](O)[C@H](Cc1ccccc1)NC(=O)[C@H](CC(N)=O)NC(=O)c1ccc2ccccc2n1 | PR-L10I K20R M36I/V P63L/S L90M | PBMC | p24 | BR59 (PR L10I K20R M36I/V P63L/S L90M) | EC50 | 0.005 µM
O=C(/C=C/c1ccc(O)cc1)c1ccc(O)cc1O | - | MT-4 | MTT | IIIB | EC50 | >20 µg/mL
O=c1[nH]cnc2c1ncn2C1CC[C@@H](CO)O1 | 4xAZT | Primary T lymphocytes | p24 / ELISA | - | EC90 | 77.1 µM
Cc1cn([C@H]2C[C@H](N=[N+]=[N-])[C@@H](CO)O2)c(=O)[nH]c1=O | RT-M41L D67N K70R T215Y K219Q | PBMC | p24 | G190-6 Clinical isolate ZDV-resistant | EC50 | >3.2 µM
CC(C)c1nc(CN(C)C(=O)N[C@H](C(=O)N[C@@H](Cc2ccccc2)C[C@H](O)[C@H](Cc2ccccc2)NC(=O)OCc2cncs2)C(C)C)cs1 | - | MT-2 | cytopathic effect / MTT | NL4-3 Laboratory clone | EC50 | 0.038 µM
CC(C)=CCc1c(O)cc(CCc2ccc(O)c(O)c2)c(CC=C(C)C)c1O | - | MT-4 | cytopathic effect / MTT | IIIB | EC50 | >4 µg/mL
CC(C)CN(C[C@@H](O)[C@H](Cc1ccccc1)NC(=O)O[C@H]1CCOC1)S(=O)(=O)c1ccc(N)cc1 | PR-L63P | PBMC | p24 | ERS104PRE(PR-L63P) Clinical isolate | EC50 | 0.025 µM
O=C(N[C@H]1c2ccccc2OC[C@H]1O)[C@H](Cc1cccnc1)C[C@H](O)CN1CCN(Cc2ccn(-c3ccccc3)c2)C[C@H]1C(=O)NCC(F)(F)F | PR-L10I M46I I54V Q58E L63P I64V V77I V82F I84V L90M I93L | MT-4 | p24 | K-60C Clinical isolate | EC95 | 0.031 µM
Cc1occc1C(=S)Nc1ccc(Cl)c(/C=N/OC(C)(C)C)c1 | - | CEM + CEM-SS | cytopathic effect / XTT | IIIB | EC50 | 0.2 µM
Nc1nc(=O)n([C@@H]2CS[C@H](CO)O2)cc1F | 4xAZT | Primary T lymphocytes | p24 / ELISA | - | EC50 | 0.2 µM
COc1ccc2c(c1)N(C(=O)OC(C)C)[C@@H](CSC)C(=S)N2 | RT-L100I | CEM | p24 | IIIB | EC50 | 0.002 µg/mL
Cc1cn([C@H]2C[C@H](N=[N+]=[N-])[C@@H](CO)O2)c(=O)[nH]c1=O | - | MT-4 | MTT | 92UG021 (subtype D) | EC50 | 0.001 µg/mL
CN1CC=C(Cc2cn(-c3ccccc3)c3ccccc23)CC1 | - | MT-2 | cytopathic effect / XTT | IIIB | EC50 | 4.4 µM
c1cc(CN2CCCNCCNCCCNCC2)ccc1CN1CCCNCCNCCCNCC1 | - | MT-4 | MTT | 92BR014 (subtype B) | EC50 | 0.004 µg/mL
Cc1c(O)cccc1C(=O)N[C@@H](CSc1ccccc1)[C@H](O)CN1C[C@H]2CCCC[C@H]2C[C@H]1C(=O)NC(C)(C)C | PR-V82F I84V | MT-4 | cytopathic effect / MTT | RF2802 (PR-V82F I84V) | EC50 | 0.068 µM
Nc1nc(NC2CC2)c2ncn([C@H]3C=C[C@@H](CO)O3)c2n1 | - | MT-2 | cytopathic effect / MTT | IIIB | EC50 | 8.3 µM
CC(C)=CCN1Cc2cc(Cl)cc3[nH]c(=S)n(c23)C[C@@H]1C | RT-K103N | CEM | p24 | IIIB | EC50 | ≥5 µg/mL
Cc1cn([C@H]2C[C@H](N=[N+]=[N-])[C@@H](CO)O2)c(=O)[nH]c1=O | RT-Q151M | MT-2 | p24 | Q151M(RT-Q151M) | EC50 | 0.17 µM
O=C(O)c1oc2cc(O)cc(O)c2c(=O)c1Oc1ccc(OCc2ccccc2)cc1OCc1ccccc1 | - | MT-4 | cytopathic effect / MTT | IIIB | EC50 | >25 µg/mL
Nc1nc2c(ncn2[C@H]2C=C[C@@H](CO)O2)c(=O)[nH]1 | - | PBMC | cytopathic effect / MTT | LAI | EC90 | 3.4 µM
CC(C)=CCc1c(O)cc(O)c2c1O[C@H](c1ccc(O)cc1)CC2=O | - | MT-4 | MTT | IIIB | EC50 | 25 µg/mL
Nc1ncnc2c1ncn2[C@@H]1O[C@H](CO)C[C@@H]1F | - | MT-2 | p24 | HXB2 | EC50 | 5.8 µM
Cc1cn([C@H]2C[C@H](N=[N+]=[N-])[C@@H](CO)O2)c(=O)[nH]c1=O | A114S | PBMC | single cycle / fluorescence | Clinical isolate | EC50 | 0.00271 µM
Cc1cn([C@H]2C=C[C@@H](CO)O2)c(=O)[nH]c1=O | RT-V75I F77L F116Y Q151M | PBMC | p24 | Recombinant | EC50 | 0.67 µM
O=C1N(Cc2ccc(CO)cc2)[C@H](Cc2ccccc2)[C@H](O)[C@@H](O)[C@@H](Cc2ccccc2)N1Cc1ccc(CO)cc1 | PR-M46I V82T | MT-4 | p24 | NL4-3 | EC50 | <0.4 µM
COC(=O)[C@H](C)NP(=O)(OC[C@@H]1C=C[C@H](n2cc(C)c(=O)[nH]c2=O)O1)Oc1ccc(Br)cc1 | - | PBMC | p24 | IIIB | EC90 | 0.052 µM
O=C(N[C@H]1c2ccccc2OC[C@H]1O)[C@H](Cc1cccnc1)C[C@H](O)CN1CCN(Cc2ccn(-c3ccc(C(F)(F)F)cc3)c2)C[C@H]1C(=O)NCC(F)(F)F | PR-L10I M46I I54V Q58E L63P I64V V77I V82F I84V L90M I93L | MT-4 | p24 | K-60C Clinical isolate | EC50 | <0.015 µM
O=c1c2ccccc2n2nnc3ccc(NCCCN4CCN(CCCNc5ccc6nnn7c8ccccc8c(=O)c5c67)CC4)c1c32 | - | PBL | p24 | CLADE A | EC50 | 0.0152 µM
CC(C)=CCc1c(O)cc(O)c(CC=C(C)C)c1CCc1ccc(O)c(O)c1 | - | MT-4 | cytopathic effect / MTT | IIIB | EC50 | >20 µg/mL
CN1CC=C(CC2(CC3=CCN(C)CC3)C(=O)N3c4ccccc4CCc4cccc2c43)CC1 | - | MT-2 | plaque count | RF | EC50 | 5 µM
Cc1cn([C@H]2C[C@H](N=[N+]=[N-])[C@@H](CO)O2)c(=O)[nH]c1=O | RT-A62V | PBMC | p24 | Recombinant | EC50 | 0.001 µM

A second listing of 6 rows from above:

SMILES	changes	cell line	read by	strain	endpoint	value
O=C(N[C@H]1c2ccccc2OC[C@H]1O)[C@H](Cc1cccnc1)C[C@H](O)CN1CCN(Cc2ccn(-c3ccc(Cl)c(Cl)c3)c2)C[C@H]1C(=O)NCC(F)(F)F	-	MT-4	p24	NL4-3 WT	EC50	<0.015 µM
Cc1cn([C@H]2C[C@H](N=[N+]=[N-])[C@@H](CO)O2)c(=O)[nH]c1=O	A114S	PBMC	single cycle / fluorescence	Clinical isolate	EC50	0.00271 µM
Cc1occc1C(=S)Nc1ccc(Cl)c(/C=N/OC(C)(C)C)c1	-	CEM + CEM-SS	cytopathic effect / XTT	IIIB	EC50	0.2 µM
O=C1N(c2ccccc2)c2ccccc2C1(Cc1ccccc1)Cc1ccncc1	-	MT-2	cytopathic effect / XTT	IIIB	EC50	28.1 µM
Nc1nc(NC2CC2)c2ncn([C@H]3C=C[C@@H](CO)C3)c2n1	-	MT-2	cytopathic effect / MTT	IIIB	EC50	2.4 µM
Nc1ncnc2c1ncn2[C@@H]1O[C@H](CO)C[C@@H]1F	-	MT-2	p24	HXB2	EC50	5.8 µM